Experimental findings from US20250002563A1 are described below.

This assay addresses recombinant RBD of the SARS-CoV-2 S protein (Example 1) (SARS-CoV-2), P0DTC2. In words: SPR, RBD immobilized on CM5. As to conditions: remark: other sources report otherwise.

B1: Nb20 (VHH)
chain: QVQLVESGGGLVQAGGSLRLSCAVSGAGAHRVGWFRRAPGKEREFVAAIGASGGMTNYLDSVKGRFTISRDNAKNTIYLQMNSLKPQDTAVYYCAARDIETAEYIYWGQGTQVTVSS
Consider B1, for which the Kd (usually the concentration at which binding is half-saturated) turned out to be 10.4 pM.
